Compound potency records, mixed from different reports. Data source: NIAID ChemDB in PubChem.

Shared fields: target-level tests; read-out: IC50

Lines come from different laboratories, so protocols vary. An empty or dashed field is not shown. ICn: concentration for n% inhibition.

| SMILES | strain | target | organism | value |
|---|---|---|---|---|
| O=C(O)CCN1C(=O)C(=Cc2ccc(-c3ccc4c(c3)Cc3ccccc3-4)o2)SC1=S |  | NS5 polymerase | Bovine viral diarrhea virus | ≤1 µM |
| COc1cc(CCCN2CCc3nc(N)nc(N)c3C2)cc(OC)c1OC | TYPE 1 | Dihydrofolate reductase | Cryptosporidium parvum | >10 µM |
| NS(=O)(=O)c1ccc(CNc2nnc(NC(=O)c3ccc(Cl)c(Cl)c3)s2)cc1 |  | Polymerase | Human cytomegalovirus | >25 µM |
| Cc1ccc(-c2cncc(N3CCN(c4cnccn4)CC3)n2)cc1 |  | UL97 kinase | Cytomegalovirus | <10 µM |
| O=C(/C=C/c1ccccc1)Nc1nnc(NCCC(c2ccccc2)c2ccccc2)s1 |  | Polymerase | Human cytomegalovirus | >25 µM |
| O=C(O)CCN1C(=O)C(=Cc2ccc(-c3cccs3)o2)SC1=S |  | NS5 polymerase | Bovine viral diarrhea virus | ≤1 µM |
| O=C(Nc1nnc(NCCCNC2CCCCC2)s1)c1ccc(Br)cc1 |  | Polymerase | Human cytomegalovirus | <25 µM |
| CCNc1cncc(-c2ccc(C(N)=O)cc2)n1 |  | UL97 kinase | Cytomegalovirus | <10 µM |
| CC(C)(C)CNc1nnc(NC(=O)/C=C/c2ccccc2Cl)s1 |  | Polymerase | Human cytomegalovirus | >25 µM |
| CC(=O)c1cccc(-c2cncc(N3CCN(c4cccc(Cl)c4)CC3)n2)c1 |  | UL97 kinase | Cytomegalovirus | <10 µM |
| CC(=O)c1ccccc1-c1ccc(C=C2SC(=S)N(c3ccc(C(=O)O)cc3)C2=O)o1 |  | NS5 polymerase | Bovine viral diarrhea virus | ≤1 µM |
| COc1ccc(Cl)cc1-c1cncc(N2CCN(c3ccncc3)CC2)n1 |  | UL97 kinase | Cytomegalovirus | <100 µM |
| O=C(O)CCN1C(=O)C(=Cc2ccc(-c3cc(Cl)cc(Cl)c3)o2)SC1=S |  | NS5 polymerase | Bovine viral diarrhea virus | ≤1 µM |
| COc1ccc(N2CCN(c3cncc(-c4ccc(C)cc4)n3)CC2)cc1OC |  | UL97 kinase | Cytomegalovirus | <10 µM |
| O=C(/C=C/c1ccccc1)Nc1nnc(NCc2ccc(Cl)c(Cl)c2)s1 |  | Polymerase | Human cytomegalovirus | >25 µM |